Assay [1] deals with HIV-1BaL pseudotype virus. It counts as biochemical.
Assay [2] has as its system purified virus like particle (VLP). The experiment in a line: DLS measurement of VLP stability. The note with it: 30 min incubation; drop of 90-100 nm peak, rise of 10-14 nm peak. Details: species or system HIV-1. The procedure:
To validate the results the stability of the VLP was also tested using DLS. […] As controls, intact purified VLP as well as YU2 GP120 trimer was used. The inhibitor and VLP were incubated for 30 minutes prior to diameter testing using DLS (FIG. 7).
FIG. 7 illustrates the validation of the viral instability caused by the inhibitor using DLS. The intact virus was approximately 90-100 nm showing consistency.

For assay [3], the system named is recombinant virus pseudotyped with the envelope for HIV-1BaL. Format: cell-based. The note with it: read-out: IC50, inhibition of infection of HOS.T4.R5 cells by HIV-1BaL pseudovirus.

As for `CCC(C)[C@H](NC(=O)[C@@H](N)CCCNC(=N)N)C(=O)N[C@@H](CC(N)=O)C(=O)N[C@@H](CC(N)=O)C(=O)N[C@H](C(=O)N1CC(n2cc([C]34[CH]5[CH]6[CH]7[CH]3[Fe]6754389%10[CH]4[CH]3[CH]8[CH]9[CH]4%10)nn2)C[C@H]1C(=O)N[C@@H](Cc1c[nH]c2ccccc12)C(=O)N[C@@H](CO)C(=O)N[C@@H](CCC(=O)O)C(=O)N[C@@H](C)C(=O)N[C@@H](CCSC)C(=O)N[C@@H](CCSC)C(=O)NCCC(=O)N[C@@H](CCC(N)=O)C(=O)NCCC(=O)N[C@@H](CS)C(N)=O)C(C)CC` (stereo partly drawn) [KR13, RINNIXWSEAMMβAQβAC-NH2], in assay [1], the “p24 release / virolysis of HIV-1BaL pseudovirus” value was “could cause virolysis, though with lower potency than AuNP-KR13”. In addition, the “viral disruption by DLS” value in assay [2] is listed as “showed viral disruption”. Moreover, the IC50 in assay [3] was found to be 23 ± 6 nM.

One may read the IC50 as the concentration at which inhibition is half-maximal.

For the origin of these results see patent US9114107B2, “Compositions for inhibiting virus entry and promoting virolysis, and methods thereof” (priority 2010, dated 2015).
